Data taken from PMC9241695, “Selective Metal Chelation by a Thiosemicarbazone Derivative Interferes with Mitochondrial Respiration and Ribosome Biogenesis in Candida albicans” (Microbiology Spectrum, 2022).

System: C. albicans SC5314
Experiment: RNA-seq transcriptional analysis
Format: cell-based, Candida albicans
Settings: for Downregulated genes / Upregulated genes / Differentially expressed genes: 6 h; for Differentially expressed genes: |log2FoldChange| > 1, P-value < 0.05
Description: C. albicans SC5314 cells were inoculated into RPMI 1640 medium at a concentration of 1 × 10^7 cells/mL and incubated at 30°C for 6 h. The cells were then harvested, and RNA extraction was performed with the Yeast RNA Kit (OMEGA, Guangzhou, China). RNA purity was evaluated using a Nanodrop-2000, and RNA integrity was assessed using the RNA Nano 6000 detection kit. RNA-Seq libraries are prepared using NEB Next Ultra RNA Library Prep Kit (NEB, MA, USA) for Illumina. The cDNA library quality was quantified first by using Qubit 2.0 Fluorometer, detected on Agilent 2100 bioanalyzer. Clustering was performed in the cBot cluster generation system. After cluster generation, the library preparations were sequenced on the Illumina Novaseq platform. Library construction and sequencing were performed by Novogene (Beijing, China). Each sample was analyzed in triplicate.
The raw data in fastq format were first processed by an internal perl script. In this step, clean data were obtained by applying various processing methods. All subsequent downstream analyses were based on high-quality clean data. The clean reads were individually mapped to the C. albicans SC5314 reference genome using HISAT2 (v2.0.5). The fragments per kilobase of transcript per million mapped reads (FPKM) value was calculated for each gene, and the read counts were mapped to the genes. The DESeq2R package (1.20.0) was used to analyze differences in expression between two groups with biological replication. Genes with an adjusted P value < 0.05 and |log2FoldChange| > 1 as detected by DESeq2 were considered DEGs. The RNA sequencing data have been submitted to the Gene Expression Omnibus (GEO) under accession number GSE179537.

**Q.** How did the Downregulated genes (0.5 μg/mL) turn out when `C/C(=N\NC(=S)N(C)C)c1ccccn1` [Compound 19ak] was run?
**A.** Its Downregulated genes is 1,285 genes.

**Q.** And the Upregulated genes (0.5 μg/mL)?
**A.** The Upregulated genes was 1,347 genes.

**Q.** What about the Differentially expressed genes (0.5 μg/mL) of the same compound?
**A.** The Differentially expressed genes was 2,632 genes.

**Q.** And the Downregulated genes (2 μg/mL)?
**A.** Its Downregulated genes is 1,635 genes.

**Q.** What about the Upregulated genes (2 μg/mL) of the same compound?
**A.** The Upregulated genes was 1,700 genes.

**Q.** And the Differentially expressed genes (2 μg/mL)?
**A.** Its Differentially expressed genes is 3,335 genes.

**Q.** What about the “Genes of mitochondrial respiratory chain complexes downregulated” value (after 19ak exposure) of the same compound?
**A.** Its value is 48 genes.
